Drawing on PMC4369318, “High-sensitivity MALDI-TOF MS quantification of anthrax lethal toxin for diagnostics and evaluation of medical countermeasures” (2015), this text covers LTx complex formed, in plasma, LTx complex formed, in serum and free (unbound) LF, percent of total LF loaded for two substances.

Assay [1] addresses protective antigen, 63 kDa activated form (PA63) (Bacillus anthracis) (UniProt P13423).
Assay [2] shares this target. Put plainly: native gel or EMSA.

With “lethal factor (LF) (from UniProt P15917 34-809)”, in assay [1], the LTx complex formed, in plasma was determined as 2 ng/mL and the LTx complex formed, in serum was 1.8 ng/mL.
On to “lethal factor (LF) (from UniProt P15917 34-809) (enzyme)”, for which, in assay [2], the free (unbound) LF, percent of total LF loaded is 3%.
